Test results from the supplement of paper PMC9931576.
Human monoclonal antibodies against the spike receptor-binding domain (heavy:light variable regions). IC50 against pseudoviruses bearing the spike of naturally observed variants; lower = stronger; >10 µg/ml means not reached at the top dose. No active / inactive call. The stated detection limit is 0.0005 µg/ml; values near or below 0.001 µg/ml lie at the floor of the assay.

Legend:
Assay in all cases: pseudovirus neutralization IC50; higher = weaker neutralization
[1] = molecular target: SARS-CoV-2 Omicron BA.1 spike pseudovirus
Description: (§1)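 Single-round VSV luciferase pseudovirus mixed with antibody dilutions for 1 h and put on Huh-7 cells for about a day; IC50 from the dose curve.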

[2] = molecular target: SARS-CoV-2 Omicron BA.2 spike pseudovirus
Description: as §1

[3] = molecular target: SARS-CoV-2 Omicron BA.2.75 spike pseudovirus
Description: as §1

[4] = molecular target: SARS-CoV-2 Omicron BA.5 spike pseudovirus
Description: as §1

[5] = molecular target: SARS-CoV-2 Omicron BQ.1.1 spike pseudovirus
Description: as §1

[6] = molecular target: SARS-CoV-2 Omicron XBB spike pseudovirus
Description: as §1

[7] = molecular target: SARS-CoV-2 early D614G spike pseudovirus
Description: as §1

Measured: pseudovirus neutralization IC50

B1: BD55-6019 (protein)
chain 1: QVQLQESGPGLLKPSETLSLICTVSGGSIGSISYYWGWIRQPPGKALEWIGNIHYSENTYNNPSLKSRVTISKDTSKNQLSLKLSAVTAADTAMYYCARGGYSGYFDVWGQGTLVSVSS
chain 2: DIQMTQSPSTLSASVGDRVTITCRASQNINVWLAWYQQKPGRAPNLLIYKASSVESGVPSRFSGSGSGTEFTLTISSLQPDDFATYYCQHYNDDSVTFGQGTKLEIK
> 10 µg/mL: [1] | [2] | [3] | [4] | [5] | [6] | [7]

B2: BD55-6035 (protein)
chain 1: EVQLVESGGGLVQPGGSLRLSCAASGFTFSRYWMTWVRQAPGKGLEWVANIKQDGTEKYYGDSVKGRFTISRDNAKNSLSLQMNSLRADDTAVYYCAGAPVSYDILAPEWFDPWGQGTLVTVSS
chain 2: SYELTQPPSVSVSPGQTARITCSGDRLPTQYTCWYQQKPGQAPVLIIYKDTKRPSGIPERFSGSTSGTRATLTISGVQAEDEADYYCQTADSVLWVFGGGTKLTVL
> 10 µg/mL: [1] | [2] | [3] | [4] | [5] | [6] | [7]

B3: BD55-6028 (protein)
chain 1: VHLVESGGGLVKPGGSLRLSCAASGFTLSTYSMNWVRQAPGKGLEWVSSISSSSSLMFYADSVKGRFTISRDNAKNSLYLQMNSLRADDTAVYYCARELSSTMTADFDLWGQGTLVTVSS
chain 2: DIQMTQSPSSLSASVGDRVTITCRASQSISTYLNWYQHKPGKAPTLLIYAASTLQSGVPSRFSGSGSGTAFTLTISSLQPEDFATYYCQQSYITPQVTFGGGTKVEIK
> 10 µg/mL: [1] | [2] | [3] | [4] | [5] | [6] | [7]

B4: BD55-6037 (protein)
chain 1: EVQLVESGGGLVQPGGSLRLSCAASGFTFSNYAMHWVRQAPGKGLEYVSAITSNGDGTFYASSVEGRFTISRDNSKNTLYLQMGSLRAEDMAVYYCAREGTADVLLYFDYWGQGTLVTVSS
chain 2: DIQMTQSPSSMSAFVGDRVTITCRAGQSINRFLNWYQQKPGKAPKLLIYAASSLQSGVPSRFSGSGSGTDFTLTISGLQPEDFATYYCQQSYITPFYTFGQGTKLEMK
> 10 µg/mL: [1] | [2] | [3] | [4] | [5] | [6] | [7]

B5: BD55-6014 (protein)
chain 1: QVQVVQSAAEVKKPGASVKVSCKASGYTFSNYGISWVRQAPGQGLEWMGWISIYNGDTKYSQKFSGRVAMTTDTSTNTAYLELRSLRFDDTAVYYCARDVRPGYSGYDFLEEPFDHWGQGTLVTVSS
chain 2: QSVLTQPPSASGTPGQRVTISCSGSSSNIGSNPVNWYQQFPGTAPKLLIYSNNQRPSGVPDRFAGSKSGASASLAISGLQSEDEADYYCAAWDDSLNGNWVFGGGTKLTVL
> 10 µg/mL: [1] | [2] | [3] | [4] | [5] | [6] | [7]

B6: BD55-6040 (protein)
chain 1: EVQLLESGGRLVQPGGSLRLSCAASGFTFSSSVMSWVRQAPGKRLQWVSGIYGSGENTYYADSVKGRFTISSDNSKNTLYLQMNSLRVEDTAVYYCAKDLGFCGGDCYRWSGVAFDNWGQGTMVTVSA
chain 2: DIQMTQSPSSLSASVGDRVTITCRASQSINIYLNWYQKKPGKAPKLLIYAALSLQSGVPSRFSGSGSGTEFTLTISGLQPEDFATYYCQQSYSTPLTFGGGTKVEIK
> 10 µg/mL: [1] | [2] | [3] | [4] | [5] | [6] | [7]

B7: BD55-6017 (protein)
chain 1: QLLESGGGLVQPGGSLRLSCAASGFIFRRYAMNWVRQAPGKGLEWVSTISGSGDDTYYADSVKGRFTMSRDNSKNRLFLQMNSLRAQDTAVYYCAKSIAAAGYDAFDIWGQGTMVTVSS
chain 2: AIQLTQSPSSLSASVRDRVTITCRASQGISNTLAWFQQKPGKPPKLLIYDASTLDSGVPSRFSGSGSGTDFTLTINSLQPEDFATYYCQQFNDYPLTFGGGTKVEF
> 10 µg/mL: [1] | [2] | [3] | [4] | [5] | [6] | [7]
